Measured values as given in PubChem BioAssay AID1986 (Sanford-Burnham Center for Chemical Genomics, 2009).
Values joined by “and” are separate entries in the source; they are usually repeats but may differ in a detail not shown here. Equal values may be shown once. The entries are a selection whose mix differs from that of the whole data set. Active and inactive are the calls of the source. No stated cut-off is given here; in the data, active means inhibition mostly above about 52% (no sharp cut-off); inactive means mostly below about 76%.

Test: cell-free HIV fusion peptide-binding blockers – biochemical, uHTS, fluorescence dequenching, primary screen (AID 1986)
Conditions: HIV Env-mediated cell-cell fusion, fluorescence reporter; at 20 µM; hits give high values

SMILES	inhibition
CCOc1ccc(C2=NCC(CBr)S2)cc1 (configuration not stated)	inactive: -1.4%
O=P1(Nc2nc3ccc(Cl)cc3s2)COc2ccccc2O1 (configuration not stated)	inactive: 1.6%
CC(C)(C)C(=O)NC(Sc1ccccc1)C(Cl)(Cl)Cl (configuration not stated)	inactive: -1%
CC(=O)c1ccc(N2CC2c2ccncc2)cc1 (configuration not stated)	inactive: -1%
C[C@H]1OP(=O)(Oc2ccccc2)C[C@@H]2O[C@@H]21 (some centres not stated)	inactive: 0%
C[C@@H]1C=CCP(=O)(Oc2ccccc2)O1 (some centres not stated)	inactive: -0.2%
CC(=O)Nc1ccc(Oc2c([N+](=O)[O-])cc([N+](=O)[O-])cc2[N+](=O)[O-])cc1	inactive: 2.7%
CC(=O)Nc1ccc([As](=O)(O)O)c(O)c1	inactive: 0.4%
O=C(NC1CCS(=O)(=O)C1)NP(=S)(Oc1ccccc1)Oc1ccccc1 (configuration not stated)	inactive: -2.6%
CCNC(=S)/N=C(\N)N[N+](=O)[O-]	inactive: 0.1%
CCOC(=O)NC(Sc1ccccc1)C(Cl)(Cl)Cl (configuration not stated)	inactive: 3.1%
Cc1ccc(NP(=O)(Oc2cccc(C)c2)Oc2cccc(C)c2)nc1	inactive: 0.5%
c1ccc(-c2nn[nH]n2)c(-c2nn[nH]n2)c1	inactive: -0.6%
Cc1ccc(OP(=O)(Nc2ccccn2)Oc2ccc(C)cc2)cc1	inactive: -0.8%
CC(=O)NC(SC(=S)N(CC(C)C)CC(C)C)C(Cl)(Cl)Cl (configuration not stated)	inactive: 1.4%
COC(=O)c1cc2c(s1)N=C(c1ccccc1)N(C)P2(=O)N1CCOCC1 (configuration not stated)	inactive: 1.3%
CCC(=O)N1C2C3N(C(=O)CC)C1C1N(C(=O)CC)C(C(N1C(=O)CC)N3C(=O)CC)N2C(=O)CC	inactive: -1.1%
O=C(OC1CN2CCC1CC2)c1ccccc1 (configuration not stated)	inactive: -0.6%
O=c1c2cc([N+](=O)[O-])ccc2[nH]c2c([N+](=O)[O-])cc([N+](=O)[O-])cc12	inactive: 27.2%
CN(C)C(=O)Oc1noc2ccccc12	inactive: -0.2%
Cc1ccccc1OP(=O)(Nc1ccccn1)Oc1ccccc1C	inactive: 1.1%
CN(C)C1(CNC(=O)c2ccc(Cl)c(S(N)(=O)=O)c2)CCCCC1	inactive: 1.8%
O=P(Nc1ccccn1)(c1ccc(Br)cc1)c1ccc(Br)cc1	inactive: 1.3%
C[C@H]1OP(=O)(Oc2ccccc2)[C@H](O)[C@H](O)[C@H]1N=[N+]=[N-] (some centres not stated)	inactive: -0.3%
O=P(Nc1nc2ccccc2s1)(c1ccccc1)c1ccccc1	inactive: 1.3%
O=[N+]([O-])c1ncn(CCn2cnc([N+](=O)[O-])n2)n1	inactive: 1.3%

SMILES	inhibition
CC(=O)NC(SC(=S)N(C)C)C(Cl)(Cl)Cl (configuration not stated)	inactive: -0.8%
O=[N+]([O-])c1ccc(O)c(/C=N/Nc2ccc([N+](=O)[O-])cc2[N+](=O)[O-])c1	inactive: 15.9%
O=[As](O)(c1ccccc1)c1ccc(O)cc1	inactive: -2.2%
C(Cc1nn[nH]n1)Cc1nn[nH]n1	inactive: 0.5%
Nc1ccc([As](=O)(O)c2ccc([N+](=O)[O-])cc2)cc1	inactive: -1%
O=C(OC1CN2CCC1CC2)c1cccc(Cl)c1 (configuration not stated)	inactive: -2.3%
O=P(Nc1nccs1)(c1ccccc1)c1ccccc1	inactive: -0.1%
CC(C)C(=O)NC(Sc1ccccc1)C(Cl)(Cl)Cl (configuration not stated)	inactive: 3.4%
c1nnnn1CCn1cnnn1	inactive: -2%
COc1ccc(C2=NCC(CBr)S2)cc1 (configuration not stated)	inactive: 0.1%
CC(=O)N1C2C3N(C(C)=O)C1C1N(C(C)=O)C(C(N1C(C)=O)N3C(C)=O)N2C(C)=O	inactive: -2.2%
O=[N+]([O-])c1cccc2n[nH]nc12	inactive: 1.2%
O=[N+]([O-])c1cc([N+](=O)[O-])c(CCNc2ccccc2)c([N+](=O)[O-])c1	inactive: 19.4%
CCc1nc2c(n1)c1c(non1O)c1c2no[n+]1[O-]	inactive: 4%
Cc1ccc(NP(=O)(Oc2ccccc2)Oc2ccccc2)nc1	inactive: 1.2%
C[N+]1=C2C=CC=CC=C2SC12C([N+](=O)[O-])=CC([N+](=O)[O-])=C[C-]2[N+](=O)[O-] (configuration not stated)	inactive: 34.9%
Nc1ccc([As](=O)(O)c2ccc(N)cc2)cc1	inactive: 3.4%
CCN(/C(=N/P(=O)(N1CCOCC1)N1CCOCC1)N1CCOCC1)c1ccc(OC)cc1	inactive: 0.3%
CN(C)C(=O)OCCc1n(C)cc[n+]1C	inactive: 2.2%
CC(C)=N/N=C(\N)N[N+](=O)[O-]	inactive: -0.4%
CC1CCN(C(=O)Oc2c(Cl)cc(Cl)c3cccnc23)CC1	inactive: -2%
O=C(Nc1cc([As](=O)(O)O)ccc1O)c1ccccc1	inactive: 2.7%
CC(C)(C)C(=O)NC(Sc1ccncn1)C(Cl)(Cl)Cl (configuration not stated)	inactive: -1.4%
O=[N+]([O-])c1ncn(CCn2ncnc2[N+](=O)[O-])n1	inactive: 1.3%
O=[N+]([O-])c1cccc(NC2=NCC(CBr)S2)c1 (configuration not stated)	inactive: -0.5%
O=C(O)CNc1ccc([As](=O)(O)O)cc1	inactive: 0.5%

SMILES	inhibition
CC(=O)Nc1ccc([As](=O)(O)O)cc1	inactive: 0.7%
O=C(O)c1ccccc1[As](=O)(O)O	inactive: -0.6%
O=P(Nc1nc2ccc(Cl)cc2s1)(c1ccccc1)c1ccccc1	inactive: 4.6%
Cc1ccc(NP(=O)(Oc2ccccc2F)Oc2ccccc2F)nc1	inactive: 0.1%
Cc1cc(SC(NC(=O)c2ccc(F)cc2)C(Cl)(Cl)Cl)ncn1 (configuration not stated)	inactive: -0.5%
CCOP(=O)(Nc1ccccc1)OCC	inactive: 2.6% and inactive: 1%
O=[N+]([O-])c1cc([N+](=O)[O-])c(CCN2CCOCC2)c([N+](=O)[O-])c1	inactive: 33.6%
CCN(N=Nc1nonc1N)c1nonc1N	inactive: 0%
Nc1cccc2ccc([As](=O)(O)O)cc12	inactive: 42.4%
NC(=O)c1cc([N+](=O)[O-])cc([N+](=O)[O-])c1N	inactive: -1.8%
Cc1ccc(N/C(=N/P(=O)(N2CCOCC2)N2CCOCC2)N2CCOCC2)cc1	inactive: 0.9%
Cc1ccc(OP(=O)(Nc2nccs2)Oc2ccc(C)cc2)cc1	inactive: 0.6%
COc1ccccc1OP(=O)(Nc1ccc(C)cn1)Oc1ccccc1OC	inactive: 1.8%
CN1CCCC(OC(=O)C(c2ccccc2)c2ccccc2)C1 (configuration not stated)	inactive: -0.4%
Clc1ccc(Cl)c(NC2=NCC(CBr)S2)c1 (configuration not stated)	inactive: -1.1%
Nc1cc(N)c2nonc2c1[N+](=O)[O-]	inactive: -3.8%
CC(C)CC(=O)NC(Sc1ccc(Cl)cc1)C(Cl)(Cl)Cl (configuration not stated)	inactive: 4.7%
O=C(NC(Sc1ccncn1)C(Cl)(Cl)Cl)c1ccccc1 (configuration not stated)	inactive: 0.5%
Cc1c2non([O-])c-2c(C)[n+](=O)[n+]1[O-]	inactive: 0%
Oc1ccccc1CNc1ccccn1	inactive: 0.1%
Cc1cc(=O)[nH]c(N[N+](=O)[O-])n1	inactive: -0.2%
O=C(OC1CN2CCC1CC2)C12CC3CC(CC(C3)C1)C2 (configuration not stated)	inactive: -2.2%
Cc1c2c(nc3ccccc13)SC(C(Cl)Cl)C2 (configuration not stated)	inactive: -1.3%
COc1cc(I)ccc1[As](=O)(O)O	inactive: 0.1%
COc1ccc2nc(NP(=O)(c3ccccc3)c3ccccc3)sc2c1	inactive: -0.2%
COc1ccc(N/C(=N/P(=O)(N2CCOCC2)N2CCOCC2)N2CCOCC2)cc1	inactive: -0.6%

SMILES	inhibition
C[As](=O)(O)c1cccc(C(=O)O)c1	inactive: -0.2%
O=[As](O)(c1ccc(O)cc1)c1ccccc1O	inactive: -1.6%
Cc1ccc2nc3c(c(C)c2c1)CC(C(Cl)Cl)S3 (configuration not stated)	inactive: 5.9%
Cc1ccc(OP(=O)(Nc2ccc([N+](=O)[O-])cn2)Oc2ccc(C)cc2)cc1	inactive: 1.2%
CC(C)c1ccc(OP(=O)(Nc2ccccn2)Oc2ccccc2F)cc1 (configuration not stated)	inactive: -0.6%
ClCCSc1nnc(-c2cccnc2)o1	inactive: 0.5%
O=[N+]([O-])c1cc([N+](=O)[O-])c(-c2ccn[nH]2)s1	inactive: 42.9%
CC(C)NC(=O)NP(=O)(Oc1ccccc1)Oc1ccccc1	inactive: -1.4%
CCN(CC)C(=S)SC(NC=O)C(Cl)(Cl)Cl (configuration not stated)	inactive: -3.4%
CCOC(=O)Nc1ccc([As](=O)(O)O)c(O)c1	inactive: -2.5%
Cc1cc(SC(NC(=O)c2ccccc2)C(Cl)(Cl)Cl)nc(C(C)C)n1 (configuration not stated)	inactive: -0.3%
CCCCOc1ccc(C(=O)NCC2(N3CCCCC3)CCCCC2)cc1OC	inactive: -0.1%
CCOC(=O)Nc1cccc([As](=O)(O)O)c1	inactive: -1%
O=[N+]([O-])c1ccc(Nc2ccc(Oc3ccc([N+](=O)[O-])cc3[N+](=O)[O-])cc2)c([N+](=O)[O-])c1	inactive: -1.9%
Cc1cc(SC(NC=O)C(Cl)(Cl)Cl)ncn1 (configuration not stated)	inactive: -1.9%
O=P(Nc1ccccn1)(c1cccc2ccccc12)c1cccc2ccccc12	inactive: 0.4%
COP1(=S)c2c(C)nn(CCC#N)c2N=C(c2ccc(F)cc2)N1C (configuration not stated)	inactive: 1.1%
O=C(Nc1ccncc1[N+](=O)[O-])c1ccc([N+](=O)[O-])cc1[N+](=O)[O-]	inactive: -2.5%
O=C(COc1ccccc1)OC1CN2CCC1CC2 (configuration not stated)	inactive: -0.2%
CCOC(=O)c1ccc(NC(=O)C(C)(CCl)SC)cc1 (configuration not stated)	inactive: 1.6%
O=C(OC1CN2CCC1CC2)c1cccc([N+](=O)[O-])c1 (configuration not stated)	inactive: -0.3%
CCC(C)N(CC(C)C)C(=S)SC(NC(C)=O)C(Cl)(Cl)Cl (configuration not stated)	inactive: 0.7%
CCOP(=O)(Nc1ccc(C)cn1)OCC	inactive: 1.3%
CCOP(=O)(NC(=NC(C)c1ccccc1)NC(C)c1ccccc1)OCC (configuration not stated)	inactive: -1.4%
